The values that follow come from article PMC11602501 (Frontiers in Immunology, 2024).

To fix the notation:
B1: PGT151 IgG (antibody, V domains shown)
VH: RVQLVESGGGVVQPGKSVRLSCVVSDFPFSKYPMYWVRQAPGKGLEWVAAISGDAWHVVYSNSVQGRFLVSRDNVKNTLYLEMNSLKIEDTAVYRCARMFQESGPPRLDRWSGRNYYYYSGMDVWGQGTTVTVSS
VL: DIVMTQTPLSLSVTPGQPASISCKSSESLRQSNGKTSLYWYRQKPGQSPQLLVFEVSNRFSGVSDRFVGSGSGTDFTLRISRVEAEDVGFYYCMQSKDFPLTFGGGTKVDLK
notes: source: Expi293, transfected, purified (protein A)
B2: N123-VRC34.01 IgG (antibody, V domains shown)
VH: QEVLVQSGAEVKKPGASVKVSCRAFGYTFTGNALHWVRQAPGQGLEWLGWINPHSGDTTTSQKFQGRVYMTRDKSINTAFLDVTRLTSDDTGIYYCARDKYYGNEAVGMDVWGQGTSVTVSS
VL: IQLTQSPSFLSASVGDKVTITCRASQGVRNELAWYQQKPGKAPNLLIYYASTLQSGVPSRFSATGSGTHFTLTVSSLQPEDFATYFCQHMSSYPLTFGGGTKVEIK
notes: as for B1
B3: vFP16.02 IgG (antibody, V domains shown)
VH: QVQLLQSGAELVRPGASVTLSCKASGYAFSDYEIHWVKQTPVRGLDWIGAFDPKSGASASNQKVKGRAILTADKSSSTAYMELRSLTSEDSAVYYCTRLRYFGYFDVWGTGTTVTVSS
VL: DVLMTQTPLSLPVSLGGQASISCRSSQSVVYSDGDTYLEWYLQKPGQSPKLLIYKVSRRFSGVPDRFSGSGSGTDFTLKISRVETEDLGVYYCFQGSHVPYTFGGGTKLEIK
notes: as for B1

The target of the experiment is T1, HIV-1 fusion peptide FP15 (Env residues 512-526, most common sequence) (HIV-1 Env fusion peptide 512-526, most …).
T1 construct: source: peptide microarray (PEPperPRINT)
T1 chain: AVGIGAVFLGFLGAA
The experiment can be described thus: peptide or protein array. As to conditions: both partners purified.
For B1, the binding result is recorded as “binds”.

For B2, the binding result is given as “binds”.

For the molecule B3, the binding result is listed as “binds”.
